# Assay results from article PMC11162425, “The Legionella collagen-like protein employs a distinct binding mechanism for the recognition of host glycosaminoglycans” (Nature Communications, 2024).
# Target: the molecule itself
# Assay: NMR (1H-15N HSQC, NOESY and ROESY)
protein,measurement,value
"EAGPQGLPGPKGDRGEAGP [Lcl-CLR peptide (collagen-like repeat consensus peptide, 19 residues)]",stoichiometry N,3
